The results in this text go back to patent US20260234738A1.

The experiment deals with Bt-SARS-CoV-2 Spike Protein (RBD) (R319-F541).mFc (column 6 of Table 8) (SARS-CoV-2). Description: Luminex beads, supernatant.

mAb10987 (antibody): the MFI came out at 26100 MFI.
